{
  "source": "patent US8979831B2",
  "about": "(priority 2008, dated 2015)",
  "key": {"[1]": {"test": "Temperature profile of hydrolysis of ethyl chloroformate in water in hydrophobic gel phantom", "settings": "for Average temperature: 200 microliters of 0.5M + 200 microliters of water, triplicate"}, "[2]": {"test": "Temperature profile of hydrolysis of ethyl chloroformate with NaOH in gel phantom", "settings": "hydrolysis in alkaline environment (NaOH)"}, "ex vivo pig livers": {"test_system": "ex vivo pig livers", "test": "Temperature profile of hydrolysis of ethyl chloroformate by NaOH in ex vivo pig livers", "settings": "10M in diglyme, one equivalent of NaOH, ex vivo pig liver"}},
  "data": [
    {"molecule": "CCOC(=O)Cl", "values": [
      {"measurement": "Average temperature", "setting": "[1]; 0 sec", "value": 23.40, "unit": "°C"},
      {"measurement": "Average temperature", "setting": "[1]; 15 sec", "value": 31.93, "unit": "°C"},
      {"measurement": "Average temperature", "setting": "[1]; 30 sec", "value": 30.60, "unit": "°C"},
      {"measurement": "Average temperature", "setting": "[1]; 45 sec", "value": 29.63, "unit": "°C"},
      {"measurement": "Average temperature", "setting": "[1]; 60 sec", "value": 28.80, "unit": "°C"},
      {"measurement": "Average temperature", "setting": "[1]; 75 sec", "value": 28.37, "unit": "°C"},
      {"measurement": "Average temperature", "setting": "[1]; 90 sec", "value": 27.87, "unit": "°C"},
      {"measurement": "Average temperature", "setting": "[1]; 105 sec", "value": 27.33, "unit": "°C"},
      {"measurement": "Average temperature", "setting": "[1]; 120 sec", "value": 27.17, "unit": "°C"},
      {"measurement": "Average temperature", "setting": "[1]; 135 sec", "value": 26.87, "unit": "°C"},
      {"measurement": "Average temperature", "setting": "[1]; 150 sec", "value": 26.63, "unit": "°C"},
      {"measurement": "Average temperature", "setting": "[1]; 165 sec", "value": 26.37, "unit": "°C"},
      {"measurement": "Average temperature", "setting": "[1]; 180 sec", "value": 26.13, "unit": "°C"},
      {"measurement": "Average temperature", "setting": "[1]; 195 sec", "value": 25.93, "unit": "°C"},
      {"measurement": "Average temperature", "setting": "[1]; 210 sec", "value": 25.73, "unit": "°C"},
      {"measurement": "Average temperature", "setting": "[1]; 225 sec", "value": 25.53, "unit": "°C"},
      {"measurement": "Average temperature", "setting": "[1]; 240 sec", "value": 25.50, "unit": "°C"},
      {"measurement": "Average temperature", "setting": "[1]; 255 sec", "value": 25.40, "unit": "°C"},
      {"measurement": "Average temperature", "setting": "[1]; 270 sec", "value": 25.27, "unit": "°C"},
      {"measurement": "Average temperature", "setting": "[1]; 285 sec", "value": 25.13, "unit": "°C"},
      {"measurement": "Average temperature", "setting": "[1]; 300 sec", "value": 25.00, "unit": "°C"},
      {"measurement": "Tmax trend with concentration", "setting": "[1]; hydrolyzed in water, solutions in diglyme", "value": "lower Tmax with increasing concentrations"},
      {"measurement": "Tmax trend with concentration", "setting": "[2]", "value": "Tmax increased with increasing concentrations"},
      {"measurement": "Change in temperature between Tmax and baseline", "setting": "ex vivo pig livers", "value": 28.4, "unit": "°C"}
    ]}
  ]
}
